Legend:
[1] = test system: Staphylococcus aureus MB6266 (MRSA COL); assay: Nargenicin antibacterial assay (MIC), S. aureus; assay type: cell-based; settings: MHII broth + 50% human serum; * = some reduction of growth versus control at […]
[2] = test system: Streptococcus pneumoniae MB6357 (CL 2883); assay: Nargenicin antibacterial assay (MIC), S. pneumoniae; assay type: cell-based; settings: Isosensitest broth; * = some reduction of growth versus control at […]
[3] = molecular target: S. aureus DnaE (DNA polymerase III α-subunit homolog from Staphylococcus aureus) (Staphylococcus aureus, UniProt Q5HF71)
[4] = test system: Pseudomonas aeruginosa MB5890 (CB1101, efflux-deleted); settings: MHII broth; * = some reduction of growth versus control at […]

Amino acid sequences for entries named in this document (tags omitted).
UniProt Q5HF71, whole entry: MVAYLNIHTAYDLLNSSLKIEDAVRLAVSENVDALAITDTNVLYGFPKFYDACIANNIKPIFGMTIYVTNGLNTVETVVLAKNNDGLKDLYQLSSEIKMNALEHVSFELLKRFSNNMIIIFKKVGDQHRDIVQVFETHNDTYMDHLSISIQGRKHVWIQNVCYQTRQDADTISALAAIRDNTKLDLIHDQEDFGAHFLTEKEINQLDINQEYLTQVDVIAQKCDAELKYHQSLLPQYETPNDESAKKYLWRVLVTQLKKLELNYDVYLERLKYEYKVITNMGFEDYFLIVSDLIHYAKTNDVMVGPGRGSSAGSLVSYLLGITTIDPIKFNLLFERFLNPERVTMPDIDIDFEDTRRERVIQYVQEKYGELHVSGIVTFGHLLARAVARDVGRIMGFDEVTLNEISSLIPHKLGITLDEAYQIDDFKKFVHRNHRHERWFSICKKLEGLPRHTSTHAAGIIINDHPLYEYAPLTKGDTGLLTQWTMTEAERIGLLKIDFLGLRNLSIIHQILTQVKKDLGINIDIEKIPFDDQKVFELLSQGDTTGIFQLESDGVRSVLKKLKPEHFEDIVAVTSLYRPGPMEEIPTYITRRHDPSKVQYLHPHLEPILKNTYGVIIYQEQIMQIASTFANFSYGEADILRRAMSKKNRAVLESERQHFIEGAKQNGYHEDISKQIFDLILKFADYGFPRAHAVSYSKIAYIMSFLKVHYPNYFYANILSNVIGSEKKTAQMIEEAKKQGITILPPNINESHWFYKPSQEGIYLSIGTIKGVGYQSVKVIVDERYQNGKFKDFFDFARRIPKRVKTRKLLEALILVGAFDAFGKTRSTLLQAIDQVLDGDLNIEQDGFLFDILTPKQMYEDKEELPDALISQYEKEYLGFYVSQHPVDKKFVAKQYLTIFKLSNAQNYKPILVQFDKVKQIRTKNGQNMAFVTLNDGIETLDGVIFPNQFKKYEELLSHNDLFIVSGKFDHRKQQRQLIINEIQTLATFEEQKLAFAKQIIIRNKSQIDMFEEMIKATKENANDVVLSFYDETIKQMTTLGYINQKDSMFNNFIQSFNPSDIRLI

## CO[C@H]1C[C@H]2C=C[C@H]3[C@H]4O[C@]2(/C(C)=C/[C@@H](C)[C@@H]([C@@H](C)O)OC1=O)[C@@H]3C(O)[C@@H](C)[C@H]4OC(=O)c1ccc[nH]1 (stereo partly shown)
[1]
  S. aureus COL (MIC): 16 µg/mL
[2]
  S. pneumoniae MB2883 (MIC): >64* μg/mL
[3]
  S. aureus DnaE IC50: 0.008 µg/mL
[4]
  P. aeruginosa MB5890 efflux-del (MIC): >64* μg/mL
